Measured values from PubChem BioAssay AID1430 (University of Pittsburgh Molecular Library Screening Center, 2008).
The list shows a part of the results, in another mix than the full data. The source made the active and inactive calls.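 How the source made its calls: active means inhibition of 50% or more in the single-dose primary screen; inactive means inhibition below 50%.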

Test system: hexokinase 1 [Trypanosoma brucei]
Test: TbHK1 enzyme activity blockers – biochemical, G6PDH-coupled NADH absorbance, MLSCN library, primary screen (AID 1430)
Conditions: recombinant TbHK1, G6PDH-coupled NADH A340; at 10 µM; active compounds read high

Question: Which inhibition does the source give for `O=C(NCC1(N2CCOCC2)CCCCC1)c1cc2ccccc2o1` here?
Answer: Its inhibition is inactive: 0.907%.

Question: For `CCOC(=O)N1CCC(Nc2ccc(OC)cc2)CC1`, which inhibition is on record?
Answer: Its inhibition is inactive: 5.62%.

Question: How did the inhibition turn out when `N#CC1(Nc2ccccc2)CCN(Cc2ccccc2)CC1` was run?
Answer: Its inhibition is inactive: -6.83%.

Question: `O=C(OC1CN2CCC1CC2)C1c2ccccc2Oc2ccccc21` (centres undefined) was tested. Which inhibition did it give?
Answer: The inhibition was inactive: 2.35%.

Question: Which inhibition does the source give for `COc1ccc(C(=O)NCC2(N3CCCCC3)CCCCC2)c(OC)c1OC` here?
Answer: The inhibition was inactive: -3.73%.

Question: With `Cc1ccc(OCC(C)C)c(CN(CCCl)CCCl)c1` as the compound, how does the inhibition read?
Answer: The inhibition was inactive: -1.75%.

Question: Which inhibition does the source give for `CCOc1ccc(C)cc1CN(CCCl)CCCl` here?
Answer: Its inhibition is inactive: -2.67%.

Question: How did the inhibition turn out when `COc1ccc(NC2CCN(CCc3ccccc3)CC2)c(OC)c1` was run?
Answer: The inhibition was inactive: 0.705%.

Question: With `COc1ccc(NC2CCN(C(=O)OC(C)(C)C)CC2)cc1` as the compound, how does the inhibition read?
Answer: Its inhibition is inactive: -3.54%.

Question: With `CN1CCN(CCOC(=O)C(O)(c2ccccc2)c2ccccc2)CC1` as the compound, how does the inhibition read?
Answer: Its inhibition is inactive: 14.7%.

Question: Which inhibition does the source give for `O=C(NCC1(N2CCOCC2)CCCCC1)c1cc(=O)[nH]c2ccccc12` here?
Answer: Its inhibition is inactive: -11.9%.

Question: How did the inhibition turn out when `O=C(NCC1(N2CCCCC2)CCCCC1)c1cccc([N+](=O)[O-])c1` was run?
Answer: The inhibition was inactive: -2.44%.

Question: `N#CC1(Nc2ccccc2)CCN(CCc2ccccc2)CC1` was tested. Which inhibition did it give?
Answer: The inhibition was inactive: 0.79%.

Question: For `CN1CCC(Nc2cccc(F)c2)CC1`, which inhibition is on record?
Answer: The inhibition was inactive: -3.23%.

Question: How did the inhibition turn out when `CN(C)c1cccc(C(=O)NCC2(N3CCCCC3)CCCCC2)c1` was run?
Answer: Its inhibition is inactive: -0.541%.

Question: With `COc1ccc(CN(CCCl)CCCl)cc1Cl` as the compound, how does the inhibition read?
Answer: The inhibition was inactive: 0.783%.

Question: `CC(C)c1ccc(NC2CCN(C(=O)OC(C)(C)C)CC2)cc1` was tested. Which inhibition did it give?
Answer: Its inhibition is inactive: -4.57%.

Question: How did the inhibition turn out when `N/C(=N\O)c1c(N)no[n+]1[O-]` was run?
Answer: Its inhibition is inactive: 19.9%.

Question: For `O=C(OC1CN2CCC1CC2)C1c2ccccc2C=Cc2ccccc21` (centres undefined), which inhibition is on record?
Answer: The inhibition was inactive: 6.32%.

Question: With `COc1ccc(C(=O)NCC2(N3CCOCC3)CCCCC2)cc1OC` as the compound, how does the inhibition read?
Answer: Its inhibition is inactive: -7.86%.

Question: With `c1ccc(CN2CCC(Nc3ccccc3)CC2)cc1` as the compound, how does the inhibition read?
Answer: Its inhibition is inactive: 15.4%.

Question: How did the inhibition turn out when `N#Cc1ccc(C(=O)NCC2(N3CCCCC3)CCCCC2)cc1` was run?
Answer: The inhibition was inactive: -2.98%.

Question: Which inhibition does the source give for `CCN1CCC(Nc2cccc(F)c2)CC1` here?
Answer: Its inhibition is inactive: 1.78%.

Question: How did the inhibition turn out when `CN(C)c1ccc(C(=O)NCC2(N3CCCCC3)CCCCC2)cc1` was run?
Answer: Its inhibition is inactive: 1.22%.

Question: Which inhibition does the source give for `CCC(CO)(C(=O)OC1CN2CCC1CC2)c1ccccc1` (centres undefined) here?
Answer: The inhibition was inactive: 2.35%.

Question: For `COc1cc(OC)cc(C(=O)NCC2(N3CCOCC3)CCCCC2)c1`, which inhibition is on record?
Answer: The inhibition was inactive: -5.69%.

Question: Which inhibition does the source give for `CCCOc1ccc(C)cc1CN(CCCl)CCCl` here?
Answer: The inhibition was inactive: 0.988%.

Question: Which inhibition does the source give for `CCOc1ncccc1C(=O)NCC1(N2CCOCC2)CCCCC1` here?
Answer: The inhibition was inactive: 4.23%.

Question: How did the inhibition turn out when `CC(C)(C)OC(=O)N1CCC(Nc2ccccc2)CC1` was run?
Answer: Its inhibition is inactive: -1.98%.
